## Sequence variants of PSTVd loop 6 after infection

From the data files of Wu et al. 2024, doi:10.1371/journal.ppat.1012142.

Region: loop 6 of PSTVd (intermediate strain), upper and lower strand joined, each 5' to 3', the first 5 letters being the upper strand, closing pairs included. Wild type: UGACCGCGAG. Varied positions (N): UNNNCGNNNG.

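Three N. benthamiana plants were inoculated with the whole mutant pool. Progeny were sequenced from the inoculated region (day 5), the margin of the inoculated leaf (day 10) and systemic leaves (day 12).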

Values are reads per thousand in the sample; higher means more abundant, 0 means not found. Each value is the mean of three plants. "Pool" is the share in the plasmid pool used as inoculum, on the same scale. The inoculated region was read from the minus strand, the other sites from the plus strand. For reference, wild type rose from 20.7 per thousand in the pool to 195, 198, 203 (inoculated region), 629, 591, 734 (leaf margin) and 942, 870, 868 (systemic leaves). The authors trace changes outside the varied positions to PCR and sequencing errors or to mutation in the plant; presence does not show that a variant is infectious alone. With 36,220-57,551 reads a sample, very low values are single reads.

| # | sequence | pool | inoculated region | leaf margin | systemic leaves |
|---|---|---|---|---|---|
| 1 | UCUCCGCGCG | 0.235 | 0.0953 | 0.00920 | 0 |
| 2 | UAAGCGAGAG | 0.353 | 0.148 | 0.0246 | 0 |
| 3 | UAACCGACUG | 0.314 | 0.0965 | 0 | 0 |
| 4 | UCACCGAGCG | 0.222 | 0.0822 | 0.0401 | 0 |
| 5 | UUUUCGCAGG | 0.144 | 0.0416 | 0 | 0 |
| 6 | UCUCCGGAUG | 0.366 | 0.0956 | 0.0261 | 0 |
| 7 | UCAGCGAACG | 0.405 | 0.113 | 0.00773 | 0.00684 |
| 8 | UAAUCGGUGG | 0.327 | 0.0897 | 0.0338 | 0 |
| 9 | UCAACGGGAG | 0.144 | 0.688 | 0.164 | 0.0669 |
| 10 | UCGGCGCGUG | 0.209 | 0.137 | 0.0168 | 0 |
| 11 | UGAUCGAUCG | 0.301 | 0.101 | 0.00773 | 0 |
| 12 | UUUUCGUACG | 0.301 | 0.0594 | 0.00920 | 0 |
| 13 | UUUGCGUUUG | 0.431 | 0.106 | 0.0184 | 0 |
| 14 | UUGGCGUCUG | 0.484 | 0.107 | 0.0155 | 0 |
| 15 | UAGACGAUUU | 0.0131 | 0 | 0 | 0 |
| 16 | UUUACGCCUG | 0.314 | 0.0956 | 0.00773 | 0 |
| 17 | GGACCGAUCG | 0.0261 | 0.0364 | 0.00841 | 0 |
| 18 | UGAACGUGUG | 0.288 | 0.599 | 0.0408 | 0 |
| 19 | UCGCCGUCGG | 0.196 | 0.119 | 0 | 0 |
| 20 | UGUCCGGGGG | 0.222 | 0.130 | 0 | 0 |
| 21 | UCUUCGCGGG | 0.471 | 0.0773 | 0.00773 | 0 |
| 22 | UGUCCGGAGG | 0.131 | 0.0835 | 0 | 0 |
| 23 | UACCCGCCUG | 0.209 | 0.0967 | 0 | 0 |
| 24 | UGACAGCGCG | 0.0131 | 0.0116 | 0 | 0 |
| 25 | UUGUCGUAAG | 0.196 | 0.113 | 0.0169 | 0 |
| 26 | UUUACGUGGG | 0.157 | 0.113 | 0 | 0 |
| 27 | UUGACGUUAG | 0.261 | 0.0839 | 0.00920 | 0 |
| 28 | CGACCGAGUG | 0.0131 | 0.521 | 0.102 | 0 |
| 29 | UAAACGCACG | 0.105 | 0.583 | 0.0576 | 0.0339 |
| 30 | UCAUCGCGGG | 0.170 | 0.0777 | 0.00920 | 0 |
| 31 | UCCCCGCGAG | 0.405 | 0.341 | 6.04 | 0.0998 |
| 32 | UGUACGCCCG | 0.196 | 0.0959 | 0.0184 | 0 |
| 33 | UUAGCGAACG | 0.288 | 0.101 | 0.0184 | 0 |
| 34 | UCUUCGCGCG | 0.183 | 0.102 | 0 | 0 |
| 35 | UGGACGAACG | 0.235 | 0.119 | 0 | 0 |

4 of these entries, quoted again:

- UUUGCGUUUG (pool 0.431) = inoculated region 0.106; leaf margin 0.0184; systemic leaves 0
- UAAGCGAGAG (pool 0.353) = inoculated region 0.148; leaf margin 0.0246; systemic leaves 0
- UAAUCGGUGG (pool 0.327) = inoculated region 0.0897; leaf margin 0.0338; systemic leaves 0
- UCGCCGUCGG (pool 0.196) = inoculated region 0.119; leaf margin 0; systemic leaves 0